Measurements taken from article PMC9841593 (ACS Medicinal Chemistry Letters, 2022).

Molecular target: influenza PAN endonuclease (Influenza A virus, UniProt C3W5S0, DEL52-64/INS51G)
Assay: PAN endonuclease fluorescence-quenching (FRET) nuclease activity assay
Type: biochemical, influenza A/California/04/2009(H1N1)
Conditions: for LE (ligand efficiency): 1.4(pIC50)/HAC; for LLE (lipophilic ligand efficiency): method of Nat. Rev. Drug Discovery 2014, 13, 105-121

Row | Structure (SMILES) | LE (ligand efficiency) | LLE (lipophilic ligand efficiency)
1 | NC(=O)c1[nH]c(Br)cc(=O)c1O [Compound 3] | 0.82 | 6.23
2 | CONC(=O)c1[nH]c(Br)cc(=O)c1O [Compound 5] | 0.65 | 5.84
3 | O=C(O)c1[nH]c(Br)cc(=O)c1O [Compound 2] | 0.83 | 6.32
